Measured values published in patent publication WO2021105669A1, “Antibodies” (dated 2021).

What was measured:
Experiment in all cases: cell-based or functional assay
[1] = molecular target: SUDV GP on S-FLU pseudotype virus (Sudan Ebola virus)
[2] = molecular target: EBOV GP on S-FLU pseudotype virus (Zaire Ebola virus)
[3] = molecular target: BDBV GP on S-FLU pseudotype virus (Bundibugyo Ebola virus)

Measured: neutralisation IC50 against that of CA45 in the same assay

B1: 11886 (antibody, V domains shown)
VH: QSVEESGGRLVTPGTPLTLTCIVSGFSLSNYYMSWVRQVPGKGLEWIGVIGWSGTSSYASWAKGRFTISKTASTTVDLKITSPTTEDTATYFCARVLYIGGGFNYYDAFDPWGPGTLVTVSS
VL: DVVMTQTPASVSEPVGGTVTIKCQASQSIGSNLAWYQQKPGQPPKLLIYAASTLASGVPSRFKGSGSGTEFTLTISDLECADAATYYCQCTYYDSSYVYNNFGGGTEVVVK
≤ 2.5 fold: all assays above
